Measured values from several laboratories, pooled; numbers as filed in NIAID ChemDB.

Common to all: growth or infection tests; organism: Mycobacterium tuberculosis

Percent inhibition refers to the dose given; in toxicity tests it is the harm to the cells. Lines come from different laboratories, so protocols vary. A number after MIC or MFC names an inhibition level or a share of isolates. Two numbers with a dash give a range or band. ECn: concentration that inhibits the pathogen or its effect by n%. Blank or dashed fields: not listed here.

structure,tested at,read by,cell line,setting,changes,measure,strain,result
COc1cccc(NC(=O)OCCN2CCOCC2)c1,,,,,,MIC,My 331/88,1000 µM
CCOC(=O)c1c(-c2ccccc2)csc1N,12.5 µg/mL,BACTEC,,,,inhibition,H37Rv,47.25%
COc1ccc(-c2oc3ccc(Br)cc3c(=O)c2O)cc1,12.5 µg/mL,,,,,inhibition,H37Rv,24%
O=C(N/N=C/c1ccccc1F)c1ccncc1,,,,,,MIC,H37Rv (ethambutol-resistant),1 µg/mL
O=c1[nH]c2cc(Cl)ccc2c(O)c1N=Nc1ccc([N+](=O)[O-])cc1,6.25 µg/mL,resazurin,,,,inhibition,H37Rv,1%
CCOC(=O)c1c(NC(=O)c2c(F)c(F)c(F)c(F)c2F)sc2c1CCNC2=O,,turbidity,,,,MIC,ATCC35838,2 µM
COc1cc(C2SC(C)C(=O)N2NC(=O)COc2ccc(NC(C)=O)cc2)cc(OC)c1OC,,,,,,EC50,H37Rv,>12.5 µg/mL
CCN1CCc2c(sc(NC(=O)c3c(F)c(F)c(F)c(F)c3F)c2C#N)C1,,low oxygen,,,,MIC,,140 µM
C=C(NC(=O)c1csc(-c2nc3c(cc2O)-c2nc(cs2)C(=O)N[C@@H]([C@@H](C)O)C(=O)N/C(=C(\C)OC)c2nc(cs2)C(=O)N[C@@H]2c4nc(cs4)C(=O)N[C@@H](COC(=O)c4c5c6c(cccc6n4O)COC(=O)[C@@H](O[C@H]4C[C@](C)(O)[C@H](N(C)C)[C@H](C)O4)[C@H]2OC5)c2nc-3cs2)n1)C(N)=O,,broth dilution,,,Multidrug-resistant,MIC,Clinical isolate 565,2.5–25 µM
COc1ccc(C2Oc3c(I)cccc3C(=O)C2O)cc1,,,,,,EC50,,>12.5 µg/mL
CCOC(=O)c1cc(-c2ccccc2)sc1NC(C)=O,,resazurin,,,,MIC,H37Rv,>100 µg/mL
O=C(/C=C/c1cccnc1)c1ccc(F)cc1,,,,,,MIC,H37Rv,48.3 µg/mL
CCOC(=O)c1ccc2c(c1)nc(-c1ccccc1)n2CCN1CCCC1=O,,resazurin / fluorescence,,,,EC90,H37Rv,63.26 µM
CCCCCC1(C)Cn2cc([N+](=O)[O-])nc2O1,,,,,,MIC,H37Rv-7A2 (PA-824-resistant),>100 µM
C/C(=N\NC(=O)c1ccncc1)c1ccccc1,,colony count,Macrophages,inside macrophages,,EC50,Erdman,<0.074 µg/mL
COc1ccc(N=Nc2c(O)c3ccc(Cl)cc3[nH]c2=O)cc1,6.25 µg/mL,resazurin,,,,inhibition,H37Rv,4%
COc1cc(OC)c2c(c1)OC(c1ccc(O)cc1)CC2=O,,,,,,EC50,,>12.5 µg/mL
CCNC(=O)c1c(NC(=O)c2c(F)c(F)c(F)c(F)c2F)sc2c1CCN(CC)C2,,turbidity,,,,EC90,ATCC 35822,13 µM
CC(=O)NC[C@H]1CN(c2ccc(N3CCN(c4ccc([N+](=O)[O-])s4)CC3)c(F)c2)C(=O)O1,,,,,,MIC,B-125,≤0.125 µg/mL
CC(NNC(=O)c1ccncc1)c1cccc(C(F)(F)F)c1,,,,,,MIC,H37Rv (isoniazid-resistant),>31.25 µg/mL
Clc1ccc(-c2c(C(c3ccccc3)n3ccnc3)cnn2-c2ccc(Cl)cc2Cl)cc1,,,,,,MIC50,ATCC 35828 (pyrazinamide-resistant),73.1 µM
NC(=O)c1cnccn1,,,,,,MIC,Isolate K10436,>100 µg/mL
CC(=O)Nc1ccc(OCC(=O)NN2C(=O)CSC2c2ccc(Cl)cc2)cc1,,,,,,EC50,H37Rv,>12.5 µg/mL
C/C(=N\NC(=O)c1ccncc1)c1ccccc1F,,,,,,MIC,H37Rv,0.2 µg/mL
CO/C(C)=C1/NC(=O)[C@H]([C@@H](C)O)NC(=O)c2csc(n2)-c2cc(O)c(-c3nc(C(=O)NCCCN4CCOCC4)cs3)nc2-c2csc(n2)[C@@H]2COC(=O)c3c4c5c(cccc5n3O)COC(=O)[C@@H](O[C@H]3C[C@](C)(O)[C@H](N(C)C)[C@H](C)O3)[C@@H](OC4)[C@H](NC(=O)c3csc1n3)c1nc(cs1)C(=O)N2,,broth dilution,,,Rifampicin- and isoniazid-resistant,MIC,Clinical isolate 18460,≤2.5 µM
Nc1cccc(C(=O)/C=C/c2ccccc2I)c1,,,,,,MIC,H37Rv,>12.5 µg/mL
CO[C@H]1/C=C/O[C@@]2(C)Oc3c(C)c(O)c4c(O)c(c(/C=N/N5CCN(C6CCCC6)CC5)c(O)c4c3C2=O)NC(=O)/C(C)=C\C=C\[C@H](C)[C@H](O)[C@@H](C)[C@@H](O)[C@@H](C)[C@H](OC(C)=O)[C@@H]1C,,,,,,MIC,13684,0.02 µg/mL
COc1ccc2c(c1)OC(c1cccc([N+](=O)[O-])c1)CC2=O,12.5 µg/mL,,,,,inhibition,,0%
O=c1[nH]c2c(Cl)c(Cl)ccc2c(O)c1N=Nc1ccccc1,,resazurin,,,,MIC,H37Rv,<6.25 µg/mL
Clc1ccc(-c2c(C(c3ccccc3)n3ccnc3)cnn2-c2ccccc2)cc1,,,,,,MIC50,ATCC 35828 (pyrazinamide-resistant),≥100 µM
O=C(/C=C/c1ccccc1)c1cc(I)ccc1O,,,,,,EC50,,<12.5 µg/mL
COc1ccc(CCNCCNCC23CC4CC(CC(C4)C2)C3)cc1,,,,,,MIC,,25 µM
CN[C@@H]1[C@H](O[C@H]2[C@H](O[C@H]3[C@H](O)[C@@H](O)[C@H](N=C(N)N)[C@@H](O)[C@@H]3N=C(N)N)O[C@@H](C)[C@]2(O)C=O)O[C@@H](CO)[C@H](O)[C@H]1O,,,,,,MIC50,ATCC 27294,0.01 µM
CCOC(=O)c1ccc2nc(-c3ccc(O)c(OC)c3)[nH]c2c1,,resazurin / fluorescence,,,,MIC,H37Rv,>100 µM
O=c1[nH]c2c(Cl)cccc2c(O)c1N=Nc1ccccc1,6.25 µg/mL,resazurin,,,,inhibition,H37Rv,100%
O=C(/C=C/c1ccccc1)c1cc(-c2ccccc2)ccc1O,12.5 µg/mL,,,,,inhibition,,68%
CCC1Cn2cc([N+](=O)[O-])nc2O1,,,,,,MIC,H37Rv-14A1 (PA-824-resistant),0.8 µM
CCN1CCc2c(sc(NC(=O)c3c(F)c(F)c(F)c(F)c3F)c2C(=O)NC)C1,,turbidity,,,,EC50,ATCC35838,1.1 µM
CC(NNC(=O)c1ccncc1)c1ccc(Cl)cc1Cl,,colony count,Macrophages,inside macrophages,,EC90,Erdman,1.38 µg/mL
CO[C@H]1/C=C/O[C@@]2(C)Oc3c(C)c(O)c4c(O)c(c(/C=N/N5CCN(C)CC5)c(O)c4c3C2=O)NC(=O)/C(C)=C\C=C\[C@H](C)[C@H](O)[C@@H](C)[C@@H](O)[C@@H](C)[C@H](OC(C)=O)[C@@H]1C,,broth dilution,,,,MIC,Clinical isolate 13923,≤0.1 µM
CC(CNC1CCCCCCC1)NCC12CC3CC(CC(C3)C1)C2,,,,,,MIC,,25 µM
Nc1ccccc1/C=C/C(=O)c1cc(Br)ccc1O,,,,,,MIC,H37Rv,>12.5 µg/mL
CCOC(=O)c1ccc2c(c1)nc(-c1ccc(OC)cc1)n2CCN1CCCOC1,,resazurin / fluorescence,,,,MIC,H37Rv,>100 µM
CCCCCOc1ccccc1NC(=O)OCCN1CCCCCC1,,,,,,MIC,My 331/88,16 µM
Fc1ccc(-c2c(C(c3ccccc3)n3ccnc3)cnn2-c2ccc(F)cc2)cc1,,,,,,MIC90,ATCC 35820 (streptomycin-resistant),≥100 µM
CCOC(=O)c1ccc2nc(-c3ccccc3)[nH]c2c1,,resazurin / fluorescence,,,,MIC,H37Rv,>100 µM
CO[C@H]1/C=C/O[C@@]2(C)Oc3c(C)c(O)c4c(O)c(c(/C=N/N5CCN(C6CCCC6)CC5)c(O)c4c3C2=O)NC(=O)/C(C)=C\C=C\[C@H](C)[C@H](O)[C@@H](C)[C@@H](O)[C@@H](C)[C@H](OC(C)=O)[C@@H]1C,,,,,,MIC,H37Rv,0.063 µg/mL
CC(=O)Nc1ccc(OCC(=O)NN2C(=O)C(C)SC2c2ccccc2Cl)cc1,,,,,,EC50,H37Rv,>12.5 µg/mL
O=C(NNCc1cccc(C(F)(F)F)c1)c1ccncc1,,,,,,MIC,H37Rv (ethionamide-resistant),>31.25 µg/mL
CO[C@H]1/C=C/O[C@@]2(C)Oc3c(C)c(O)c4c(O)c(c(/C=N/N5CCN(C/C=C/c6ccccc6)CC5)c(O)c4c3C2=O)NC(=O)/C(C)=C\C=C\[C@H](C)[C@H](O)[C@@H](C)[C@@H](O)[C@@H](C)[C@H](OC(C)=O)[C@@H]1C,,,,,,MIC,MTB31 (MDR),>8 µg/mL
CC(C)c1ccc2c(c1)CC[C@H]1[C@](C)(CNCCNC3CCCc4ccccc43)CCC[C@]21C,,,,,,MIC,,25 µM
Fc1ccccc1-c1c(C(c2ccccc2)n2ccnc2)cnn1-c1ccccc1F,,,,,,MIC90,ATCC 35837 (ethambutol-resistant),≥100 µM
CCCCNC(=O)c1c(N)sc2c1CCN(CC)C2,,resazurin,,,,EC50,H37Rv,>100 µg/mL
O=C(N/N=C/c1cccc(C(F)(F)F)c1)c1ccncc1,,,,,,MIC,H37Rv (ciprofloxacin-resistant),3.9 µg/mL
CCCCOc1ccccc1NC(=O)OCCN1CCCCC1,,,,,,MIC,My 331/88,125 µM
c1ccc(-c2c(C(c3ccccc3)n3ccnc3)cnn2-c2ccccc2)cc1,,,,,,MIC50,ATCC 35837 (ethambutol-resistant),33 µM
N#Cc1c(NC(=O)c2c(F)c(F)c(F)c(F)c2F)sc2c1CCOC2,,turbidity,,,gyrA mutant (D94N),MIC,H37Rv,13 µM
O=C1CC(c2ccccc2)Oc2cc(I)ccc21,12.5 µg/mL,,,,,inhibition,H37Rv,9%
CC(=O)NC[C@H]1CN(c2ccc(N3CCOCC3)c(F)c2)C(=O)O1,,resazurin,,,INH resistant,MIC,Clinical isolate BRF 23,0.25 µg/mL
CCOC(=O)c1ccc2c(c1)nc(-c1ccc(N3CCOCC3)cc1)n2CCN1CCCOC1,,resazurin / fluorescence,,,,EC90,H37Rv,>100 µM
COc1ccccc1N=Nc1c(O)c2cccc([N+](=O)[O-])c2[nH]c1=O,,resazurin,,,,MIC,H37Rv,>6.25 µg/mL
CCOC(=O)c1ccc2c(c1)nc(-c1ccc(Cl)cc1)n2CCN1CCCOC1,,resazurin / fluorescence,,,,EC90,H37Rv,87.52 µM
Oc1ccc(CCNCCNCCc2ccc(Cl)cc2Cl)cc1,,,,,,MIC,,50 µM
CCOC(=O)c1ccc2c(c1)nc(-c1ccc(O)c(OC)c1)n2CCN1CCCC1=O,,resazurin / fluorescence,,,,EC90,H37Rv,>100 µM
Nc1ncccc1/C=C/C(=O)c1cc(Cl)ccc1O,12.5 µg/mL,,,,,inhibition,,0%
NNC(=O)c1ccncc1,,broth dilution,,,Isoniazid- and moxifloxacin-resistant,MIC,Clinical isolate 18343,>10 µM
CCOC(=O)c1cc(-c2ccccc2)sc1NC(=O)c1c(F)c(F)c(F)c(F)c1F,,resazurin,,,,MIC,H37Rv,>100 µg/mL
CC(NNC(=O)c1ccncc1)c1ccc(F)cc1,,,,,,MIC,Ethambutol-resistant,≤0.78 µg/mL
CCCCCCCCOc1ccccc1NC(=O)OCCN1CCCCC1,,,,,,MIC,My 331/88,32 µM
CO[C@H]1/C=C/O[C@@]2(C)Oc3c(C)c(O)c4c(O)c(c(/C=N/N5CCN(C)CC5)c(O)c4c3C2=O)NC(=O)/C(C)=C\C=C\[C@H](C)[C@H](O)[C@@H](C)[C@@H](O)[C@@H](C)[C@H](OC(C)=O)[C@@H]1C,,,,,,MIC50,ATCC 35820 (streptomycin-resistant),0.2 µM
COc1ccc(C2Oc3ccc(C(=O)O)cc3C(=O)C2O)cc1,,,,,,EC50,H37Rv,>12.5 µg/mL
CC(=O)Nc1ccc(OCC(=O)NN2C(=O)C(C)SC2c2ccc(O)cc2)cc1,,,,,,EC50,H37Rv,>12.5 µg/mL
O=C(c1ccccc1)c1ccc2c(=O)c(C(=O)c3ccccc3)c(-c3ccccc3)oc2c1,,,,,,MIC,H37Rv,>12.5 µg/mL
O=C(NNCc1ccccc1)c1ccncc1,,colony count,Macrophages,inside macrophages,,EC50,Erdman,<0.005 µg/mL
COc1ccc(N=Nc2c(O)c3c(Cl)ccc(Cl)c3[nH]c2=O)cc1,6.25 µg/mL,resazurin,,,,inhibition,H37Rv,36%
CCOC(=O)c1ccc2nc(-c3ccc([N+](=O)[O-])cc3)[nH]c2c1,,resazurin / fluorescence,,,,EC50,H37Rv,>100 µM
Fc1ccc(-n2ncc(C(c3ccccc3)n3ccnc3)c2-c2ccccc2)c(F)c1,,,,,,MIC90,ATCC 27294,>100 µM
CCCCCOc1ccccc1NC(=O)OCCN1CCOCC1,,,,,,MIC,My 331/88,125 µM

9 of the rows above, restated:

structure,tested at,read by,cell line,setting,changes,measure,strain,result
Fc1ccc(-c2c(C(c3ccccc3)n3ccnc3)cnn2-c2ccc(F)cc2)cc1,,,,,,MIC90,ATCC 35820 (streptomycin-resistant),≥100 µM
CCOC(=O)c1c(-c2ccccc2)csc1N,12.5 µg/mL,BACTEC,,,,inhibition,H37Rv,47.25%
CCOC(=O)c1ccc2c(c1)nc(-c1ccccc1)n2CCN1CCCC1=O,,resazurin / fluorescence,,,,EC90,H37Rv,63.26 µM
NNC(=O)c1ccncc1,,broth dilution,,,Isoniazid- and moxifloxacin-resistant,MIC,Clinical isolate 18343,>10 µM
CCOC(=O)c1cc(-c2ccccc2)sc1NC(=O)c1c(F)c(F)c(F)c(F)c1F,,resazurin,,,,MIC,H37Rv,>100 µg/mL
O=C1CC(c2ccccc2)Oc2cc(I)ccc21,12.5 µg/mL,,,,,inhibition,H37Rv,9%
CC(=O)Nc1ccc(OCC(=O)NN2C(=O)CSC2c2ccc(Cl)cc2)cc1,,,,,,EC50,H37Rv,>12.5 µg/mL
O=C(NNCc1ccccc1)c1ccncc1,,colony count,Macrophages,inside macrophages,,EC50,Erdman,<0.005 µg/mL
O=C(/C=C/c1ccccc1)c1cc(-c2ccccc2)ccc1O,12.5 µg/mL,,,,,inhibition,,68%